Pooled drug test results. Numbers come from NIAID ChemDB, via PubChem.

All rows: whole-cell or culture tests; species: Mycobacterium tuberculosis

Blank or dashed fields: not listed here. Two numbers with a dash give a range or band. A number after MIC or MFC names an inhibition level or a share of isolates. Rows are shuffled and stem from different studies. Inhibition is in % at the dose shown (toxicity tests: loss of growth or viability). MIC bound: limit read from a one-dose screen.

compound	strain or isolate	mutations	read by	setting	read-out	dose	value
CC(=O)Nc1cc(C=O)ccc1Oc1cc(C=O)ccc1O	H37Rv	-	-	-	MIC	-	250–1000 µg/mL
CC[C@@H](CO)NCCN[C@@H](CC)CO	90-0216 (DRUG-SUS)	-	-	-	MIC	-	1 µg/mL
O=[N+]([O-])c1ccccc1Oc1ccccc1O	H37Rv	-	-	-	MIC	-	31.25–62.5 µg/mL
N#Cc1ccc(/C=C/C(=O)NN)cc1	BCG	-	-	-	MIC	-	5 µg/mL
COc1cc(/C=N/NC(=O)c2cc(-c3ccc(F)cc3F)ccc2O)ccc1O	H37Rv	-	resazurin	-	inhibition	6.25 µg/mL	27%
O=C1OC2CC3CC2C1C3C(=O)N1CCCCC1	H37Rv	-	BACTEC	-	inhibition	12.5 µg/mL	16%
Clc1ccc(/C(Cn2ccnc2)=N/OC/C=C/c2ccccc2)cc1	CIP103471	-	-	-	MIC	-	8 µg/mL
FC(F)(F)c1cc(-c2ccccc2)nc(N2N=C(/C=C/c3ccc(Cl)cc3)CC2c2ccc(Cl)cc2)n1	H37Rv	-	resazurin	-	MIC	-	>41.2 µM
O=[N+]([O-])c1ccc(C2=NOC(c3ccc(N4CCN(Cc5ccccc5)CC4)cc3)C2)o1	UT26	-	-	-	MIC	-	0.006 µg/mL
N#Cc1cccc(/C=C/C(=O)NN)c1	BCG	-	-	-	MIC	-	5 µg/mL
CCCCN(C)C(=O)COc1ccc(/C=C(/C(=O)c2ccc(OC)cc2)c2ccccc2)cc1	H37Rv	-	-	-	MIC100	-	>250 µg/mL
O=C1NC(=O)C2(CCCc3c([N+](=O)[O-])cccc32)N1	H37Rv	-	resazurin	-	MIC bound	-	>6.25 µg/mL
O=C(N/N=C/c1ccc([N+](=O)[O-])o1)c1cc(-c2ccc(F)cc2F)ccc1O	H37Rv	-	resazurin	-	MIC	-	>6.25 µg/mL
CO[C@H]1/C=C/O[C@@]2(C)Oc3c(C)c(O)c4c(O)c(c(/C=N/N5CCN(C)CC5)c(O)c4c3C2=O)NC(=O)/C(C)=C\C=C\[C@H](C)[C@H](O)[C@@H](C)[C@@H](O)[C@@H](C)[C@H](OC(C)=O)[C@@H]1C	H37RV 102	-	-	-	MIC	-	1 µg/mL
O=C(NCc1ccccc1)c1ccc(Cl)cc1O	H37Rv	-	-	21 d	MIC	-	62 µM
COc1c(OCc2ccccc2)ccc2c1c[n+](C)c1c3cc4c(cc3ccc21)OCO4	H37Rv	-	BACTEC	-	MIC	-	<12.5 µg/mL
CCc1nc2sc(C)cn2c1C(=O)NCc1ccc(N2CCC(c3ccc(OC(F)(F)F)cc3)CC2)cc1	H37Rv	-	resazurin	-	MIC90	-	<2 µM
CC(=O)Oc1ccc(/C=C2\N=C(c3ccccc3)OC2=O)cc1Oc1ccc(/C=C2\N=C(c3ccccc3)OC2=O)cc1[N+](=O)[O-]	H37Rv	-	-	-	MIC	-	62.5–125 µg/mL
NC(=O)c1csc([C@@H]2O[C@H](CO)C[C@H]2O)n1	H37Rv	-	BACTEC	-	inhibition	12.5 µg/mL	0%
O=C(Nc1cccc(CN2CCOCC2)c1)c1ccc(Cl)cc1	103471	-	-	-	MIC	-	8 µg/mL
O=C(NCc1ccccc1)c1cc(Cl)cc(Cl)c1O	H37Rv	-	-	21 d	MIC	-	62 µM
OC(c1cc(-c2ccc(C(F)(F)F)cc2)nc(C(F)(F)F)c1)C1CCCCN1	H37Rv	-	resazurin	-	inhibition	6.25 µg/mL	99%
O=C(NC1CCC2(CCCCC2)CC1)c1cc2c(Cl)cc(Cl)cc2[nH]1	H37Rv	-	resazurin / fluorescence	-	MIC	-	0.003 µM
COc1cc(OC(C)=O)cc(Oc2ccc(C(OC(C)=O)OC(C)=O)cc2[N+](=O)[O-])c1OC	H37Rv	-	-	-	MIC	-	31.25 µg/mL
CC(C)(C)C(=O)Nc1ccc(S(=O)(=O)Nc2nccs2)cc1	H37Rv	-	-	-	MIC	-	10 µg/mL
O=[N+]([O-])c1ccc2c(c1)S(=O)c1cc([N+](=O)[O-])ccc1N2	H37Rv	-	BACTEC	-	inhibition	12.5 µg/mL	2%
Clc1ccc(/C(Cn2ccnc2)=N\OCc2ccccc2)cc1	CIP103471	-	-	-	MIC	-	0.5 µg/mL
COc1ccc(/C=C/C(=O)NN)cc1	BCG	-	-	-	MIC	-	2 µg/mL
COc1cc(C=O)cc(Oc2ccc(CC(=O)O)cc2[N+](=O)[O-])c1O	H37Rv	-	-	-	MIC	-	1000 µg/mL
COc1c(N2CCNC(C)C2)c(F)cc2c(=O)c(C(=O)O)cn(C3CC3)c12	H37Rv	-	-	-	MIC	-	0.125 µg/mL
CC1COc2c(N3CCN(C)CC3)c(F)cc3c(=O)c(C(=O)O)cn1c23	90-0216 (DRUG-SUS)	-	-	-	MIC	-	0.5 µg/mL
CCN(CCO)CCNc1ccc(C)c2sc3ccccc3c(=O)c12	H37Rv	-	BACTEC	-	MIC	-	6.25 µg/mL
COC(=O)Cc1ccc(Oc2cc(/C=N/Nc3ccc([N+](=O)[O-])cc3[N+](=O)[O-])cc(OC)c2OC(C)=O)cc1	H37Rv	-	-	-	MIC	-	250–1000 µg/mL
COc1cccc(N2C(=O)[C@H]3[C@H]4CC(C(C)(C)C)CC[C@H]4c4c([nH]c5ccccc45)[C@H]3C2=O)c1	H37Rv	-	BACTEC	-	inhibition	12.5 µg/mL	15%
CCc1nc2cc(C)ccn2c1C(=O)NCc1cccc(S(F)(F)(F)(F)F)c1	H37Rv	-	resazurin	-	MIC90	-	<2 µM
O=[N+]([O-])c1cn2c(n1)OC[C@@H](OCc1ccc(OC(F)(F)F)cc1)C2	UT26	-	-	-	MIC	-	0.012 µg/mL
O=C1CC(=O)N(c2ccccc2)O1	H37Rv	-	resazurin	-	inhibition	6.25 µg/mL	29%
CC(C)Oc1cc2c[n+](C)c3c4cc5c(cc4ccc3c2cc1O)OCO5	H37Rv	-	BACTEC	-	MIC	-	>12.5 µg/mL
NCC[C@H](O)C(=O)N[C@@H]1C[C@H](N)[C@@H](O[C@H]2O[C@H](CN)[C@@H](O)[C@H](O)[C@H]2O)[C@H](O)[C@H]1O[C@H]1O[C@H](CO)[C@@H](O)[C@H](N)[C@H]1O	H37Rv	-	-	-	MIC	-	0.5 µg/mL
CN1CCN(Cc2ccccc2NC(=O)/C=C/c2ccccc2)CC1	103471	-	-	-	MIC	-	>16 µg/mL
CC(C)(C)C(=O)Nc1ccc(S(=O)(=O)c2ccc(N)cc2)cc1	H37Rv	-	-	-	MIC	-	10 µg/mL
NNC(=O)c1cc(-c2ccc(F)cc2F)ccc1O	H37Rv	-	resazurin	-	inhibition	6.25 µg/mL	21%
C[C@@H]1C(NC(=O)c2cc3c(Cl)cc(Cl)cc3[nH]2)C[C@H]2C[C@@H]1C2(C)C	V2475	-	resazurin / fluorescence	multidrug-resistant	MIC	-	0.0625 µM
CCc1nc2sc(C)cn2c1C(=O)NCc1cccc(S(F)(F)(F)(F)F)c1	H37Rv	-	resazurin	-	MIC90	-	<2 µM
O=C(Nc1cccc(Cn2ccnc2)c1)c1ccc(Cl)cc1	103471	-	-	-	MIC	-	>16 µg/mL
O=C(O)c1nc(=O)[nH]c(=O)[nH]1	H37Rv	-	BACTEC	-	MIC	-	≥128 µg/mL
N=NC(=S)NC(=O)c1ccncc1	H37Rv	-	-	-	MIC	-	5 µg/mL
NC(=O)NC(=O)C1C2C=CC(C2)C1C(=O)NC(N)=O	H37Rv	-	BACTEC	-	inhibition	12.5 µg/mL	0%
COc1cc2c(cc1OC(C)C)c[n+](C)c1c3cc4c(cc3ccc21)OCO4	H37Rv	-	BACTEC	-	MIC	-	>12.5 µg/mL
COC1/C=C\C=C(/C)C(=O)Nc2cc3nc4cc(Br)ccc4oc-3c(c2=O)CC(C)CC(OC)C(O)C(C)/C=C(\C)C1OC(N)=O	EMB-R	-	-	-	MIC	-	12.5 µg/mL
Clc1ccc(/C(Cn2ccnc2)=N\OCc2cccc3ccccc23)c(Cl)c1	CIP103471	-	-	-	MIC	-	8 µg/mL
O=C(N/N=C/c1ccc(Cl)cc1Cl)c1cc(-c2ccc(F)cc2F)ccc1O	H37Rv	-	resazurin	-	inhibition	6.25 µg/mL	21%
CO[C@@H]1C/C=C\C=C\C[C@H](C)[C@@H](O)C[C@@H](O)[C@H](C)[C@H](O)CC(=O)O[C@H]([C@H](C)[C@H](O)/C=C(\C)CC/C=C/C=C/CC(O)CC(C)CCC(=O)O)C[C@H](O)CCC1	HUG.MB.6726	inhA mutant isoniazid resistant	resazurin / absorbance	-	MIC	-	0.4 µg/mL
Cc1cn2c(C(=O)NCc3ccc(N4CCN(c5ccc(C(F)(F)F)cn5)CC4)c(F)c3)c(C)nc2s1	H37Rv	-	resazurin	-	MIC90	-	<2 µM
CCCCCC(O)CC(=O)CCc1ccc(O)c(OC)c1	H37Rv	-	-	-	MIC	-	>100 µg/mL
O=C(N/N=C/c1ccc([N+](=O)[O-])cc1)c1cc(-c2ccc(F)cc2F)ccc1O	H37Rv	-	resazurin	-	MIC	-	>6.25 µg/mL
COc1ccc(CC(=S)N2CCOCC2)cc1Oc1ccc(CC(=S)N2CCOCC2)cc1	H37Rv	-	-	-	MIC	-	7.8–15.6 µg/mL
Cc1ccccc1/C=C/C1=NN(C(=N)N)C(c2ccccc2C)C1	RGH103	katG S315T isoniazid resistant	resazurin	-	MIC	-	0.66 µM
COc1ccc(C2OC3=Nc4ccccc4NC3C2=O)cc1OC	H37Rv	-	BACTEC	-	MIC bound	-	>12.5 µg/mL
O=C(O)c1cnc(Cl)cn1	CDC-BP-98	-	-	-	MIC	-	128 µg/mL
COc1ccc(CC[N+](=O)[O-])cc1	BCG	-	-	-	MIC	-	>100 µg/mL
C/C=C/C/C=C/CCC(=O)[C@H]1O[C@H]1C(N)=O	90-0216 (DRUG-SUS)	-	-	-	MIC	-	2.5 µg/mL
CCc1nc2ccc(C)cn2c1C(=O)NCc1ccc2c(c1)CCO2	H37Rv	-	resazurin	-	MIC90	-	<2 µM
O=C(NCc1ccccn1)c1cc(F)ccc1O	H37Rv	-	-	21 d	MIC	-	1000 µM
Fc1ccc(/C(Cn2ccnc2)=N/OC/C=C/c2ccccc2)cc1	CIP103471	-	-	-	MIC	-	8 µg/mL
COc1cccc2c1c[n+](C)c1c3cc4c(cc3ccc21)OCO4	H37Rv	-	BACTEC	-	MIC	-	>12.5 µg/mL
O=C(NCc1ccccn1)c1cc(Br)ccc1O	H37Rv	-	-	21 d	MIC	-	500 µM
Cc1ccc2nc(C)c(C(=O)NCc3ccc(C(F)(F)F)cc3)n2c1	H37Rv	-	resazurin	-	MIC90	-	<2 µM
CN1CCN(Cc2ccc(NC(=O)c3ccc(Cl)cc3)cc2)CC1	103471	-	-	-	MIC	-	8 µg/mL
CCN1C(=O)N(C)C(O)c2c1nc1ccccn1c2=O	H37Rv	-	resazurin	-	MIC bound	-	>6.25 µg/mL
Cc1cn2c(C(=O)NCc3ccc(N4CCN(C(=O)OCC(C)C)CC4)c(F)c3)c(C)nc2s1	H37Rv	-	resazurin	-	MIC90	-	2–10 µM
CCOC(=O)c1nc2cc(C(F)(F)F)ccc2nc1Nc1ccc(C(=O)OC)s1	H37Rv	-	resazurin	-	MIC bound	-	>6.25 µg/mL
Fc1ccc(/C(Cn2ccnc2)=N/OCc2ccccc2)cc1	CIP103471	-	-	-	MIC	-	8 µg/mL
CCOC(=O)Cn1nc(-c2ccc([N+](=O)[O-])o2)oc1=O	H37Rv	-	BACTEC	-	MIC	-	≥12.5 µg/mL
C(=C\c1ccccc1)/CO/N=C(/Cn1ccnc1)c1ccccc1	CIP103471	-	-	-	MIC	-	8 µg/mL
O=[N+]([O-])c1ccccc1S(=O)(=O)c1ccccc1[N+](=O)[O-]	H37Rv	-	BACTEC	-	MIC bound	-	>12.5 µg/mL
COc1ccc(/C=C/C2=NN(C(=N)N)C(c3ccc(OC)cc3)C2)cc1	RGH103	katG S315T isoniazid resistant	resazurin	-	MIC	-	0.3 µM
CNC(=O)N(C)C(=O)c1ccncc1C(=O)N(C(=O)NC1CCCCC1)C1CCCCC1	H37Rv	-	resazurin	-	MIC bound	-	>6.25 µg/mL
COc1cc(C=O)cc(Oc2ccc(C=O)c([N+](=O)[O-])c2)c1O	H37Rv	-	-	-	MIC	-	250–500 µg/mL
O=C1N(CCCl)CCN1c1ccccc1	H37Rv	-	BACTEC	-	inhibition	12.5 µg/mL	0%
COc1cccc(C(=O)NCc2cccnc2)c1O	H37Rv	-	-	14 d	MIC	-	250 µM
O=C(O)CCSC(=S)Nc1ccccc1O	H37Rv	-	BACTEC	-	MIC	-	≥128 µg/mL
CO[C@H]1/C=C/O[C@@]2(C)Oc3c(C)c(O)c4c(O)c(c5c(c4c3C2=O)NC2(CCN(CC(C)C)CC2)N=5)=NC(=O)/C(C)=C\C=C\[C@H](C)[C@H](O)[C@@H](C)[C@@H](O)[C@@H](C)[C@H](OC(C)=O)[C@@H]1C	Isolate 900240 drug-susceptible	-	-	-	MIC	-	0.125 µg/mL
O[C@@H]1[C@@H](O)[C@@H](O)CN2CC[C@H](O)[C@@H]12	H37Rv	-	BACTEC	-	MIC bound	-	>12.5 µg/mL
O=C(c1ccc([N+](=O)[O-])o1)N1CCc2cc(N3CCN(Cc4ccccc4)CC3)ccc2C1	UT30	-	-	-	MIC	-	0.012 µg/mL

Repeating the first 6 entries:

compound | strain or isolate | mutations | read by | setting | read-out | dose | value
CC(=O)Nc1cc(C=O)ccc1Oc1cc(C=O)ccc1O | H37Rv | - | - | - | MIC | - | 250–1000 µg/mL
CC[C@@H](CO)NCCN[C@@H](CC)CO | 90-0216 (DRUG-SUS) | - | - | - | MIC | - | 1 µg/mL
O=[N+]([O-])c1ccccc1Oc1ccccc1O | H37Rv | - | - | - | MIC | - | 31.25–62.5 µg/mL
N#Cc1ccc(/C=C/C(=O)NN)cc1 | BCG | - | - | - | MIC | - | 5 µg/mL
COc1cc(/C=N/NC(=O)c2cc(-c3ccc(F)cc3F)ccc2O)ccc1O | H37Rv | - | resazurin | - | inhibition | 6.25 µg/mL | 27%
O=C1OC2CC3CC2C1C3C(=O)N1CCCCC1 | H37Rv | - | BACTEC | - | inhibition | 12.5 µg/mL | 16%